Legend:
[1] = tested on: AGS cells (human gastric cancer cells); experiment: Cytotoxicity by concentration in AGS cells (MTT test); type: cell-based; conditions: 4 hours, at 0.5 μg/mL or less of pheophorbide a, no laser
[2] = tested on: Helicobacter pylori (H. pylori) SS1 strain; experiment: Treatment of Helicobacter pylori SS1 infection in Balb/c mice, CFU assay of stomach; type: in vivo; conditions: balb c mice, oral
AGS cells = experiment: Cellular phototoxicity by laser irradiation dose in AGS cells (MTT assay); conditions: 0.5 μg/mL based on pheophorbide a, 30 minutes
[3] = tested on: Helicobacter pylori 26695 strain; experiment: Antibacterial activity in vitro by laser dose, CFU assay, 26695 strain; type: cell-based; conditions: same laser conditions

| Substance | cytotoxicity (MTT cell viability) [1] | Helicobacter pylori colonies, laser-irradiated group (+) ([2]; 40 mW laser 250 seconds, total 10 J/cm^2 into the stomach) | Helicobacter pylori colonies, laser-non-irradiated group (−) ([2]; stomach removed two days after final administration, no laser) | cytotoxicity until 2.4 J/cm^2 laser irradiation (AGS cells) | cytotoxicity at 4.0 J/cm^2 (AGS cells; 4.0 J/cm^2 laser) | laser irradiation dose from which cytotoxicity appeared (AGS cells; 50 mW laser) | antibacterial activity compared to butyl-poly(3SL-lysine)10-Pheoa [3] |
| --- | --- | --- | --- | --- | --- | --- | --- |
| butyl-poly(3SL-lysine)10-pheoa | hardly exhibited cytotoxicity | 6.7×10^4 CFU/stomach | 1.6×10^7 CFU/stomach | little cytotoxicity | about 30% | 3.2 J/cm^2 | – |
| butyl-poly(6SL-lysine)10-Pheoa | – | – | – | – | – | – | very low antibacterial activity |

From patent publication US12138308B2, “Polymer composite for helicobacter pylori recognition and composition for photodynamic therapy comprising same” (eNBiaR Inc., priority 2018, dated 2024)
